Measurements reported in patent US20230233533A1, “COMPOSITIONS, METHODS OF TREATING AND PREVENTING FUNGAL INFECTIONS, AND METHODS OF INHIBITING PRP8 INTEIN EXPRESSION” (Health Research, Inc., priority 2020, published 2023).
“And” between values parts separate entries of the source, which are not always exact repeats. Equal entries are not always repeated.

Tested on: C. neoformans H99 strain
Assay: Fungal susceptibility test, broth microdilution MIC
Format: cell-based, Cryptococcus neoformans
Details: CC50 A549 / MIC C. neoformans
Description: Fungal susceptibility test—The fungal susceptibility test was carried out with a compound concentration series as described. […] The broth microdilution method was used to determine the compound MIC values against C. neoformans.
Fungal susceptibility test—The fungal susceptibility test was carried out with a compound concentration series as described. […] Microbes. Infect. […] The broth microdilution method was used to determine the compound MIC values against C. neoformans.

Row | Compound | TI, therapeutic index (CC50/MIC)
1 | 5-((4-Chlorophenyl)sulfonyl)-N-(6-fluoropyridin-3-yl)-1,2,3-thiadiazole-4-carboxamide [JMX0581] | 118
2 | 5-((4-Chlorophenyl)thio)-N-(6-fluoropyridin-3-yl)-1,2,3-thiadiazole-4-carboxamide [JMX0580] | <0.3
3 | O=C(Nc1ccc(F)cc1F)c1nnsc1S(=O)(=O)c1ccc(Cl)cc1 [6G-319S, 5-((4-Chlorophenyl)sulfonyl)-N-(2,4-difluorophenyl)-1,2,3-thiadiazole-4-carboxamide] | 35
4 | O=C(Nc1ccc(F)cc1F)c1ncsc1S(=O)(=O)c1ccc(Cl)cc1 [JMX0515, 5-((4-Chlorophenyl)sulfonyl)-N-(2,4-difluorophenyl)thiazole-4-carboxamide] | <2.1
5 | O=C(Nc1ccccc1F)c1ncsc1S(=O)(=O)c1ccc(Cl)cc1 [JMX0516, 5-((4-Chlorophenyl)sulfonyl)-N-(2-fluorophenyl)thiazole-4-carboxamide] | <1.4
6 | O=C(Nc1cccc(F)c1)c1ncsc1S(=O)(=O)c1ccc(Cl)cc1 [JMX0517, 5-((4-Chlorophenyl)sulfonyl)-N-(3-fluorophenyl)thiazole-4-carboxamide] | <1.6
7 | O=C(Nc1ccc(Cl)cc1)c1ncsc1S(=O)(=O)c1ccc(Cl)cc1 [JMX0518, N-(4-Chlorophenyl)-5-((4-chlorophenyl)sulfonyl)thiazole-4-carboxamide] | 1.1
8 | O=C(Nc1ccc(Cl)cc1Cl)c1ncsc1S(=O)(=O)c1ccc(Cl)cc1 [JMX0519, 5-((4-Chlorophenyl)sulfonyl)-N-(2,4-dichlorophenyl)thiazole-4-carboxamide] | <2.4
9 | O=C(Nc1ccc(F)c(F)c1)c1ncsc1S(=O)(=O)c1ccc(Cl)cc1 [JMX0520, 5-((4-Chlorophenyl)sulfonyl)-N-(3,4-difluorophenyl)thiazole-4-carboxamide] | <0.8
10 | O=C(Nc1ccc(C(F)(F)F)cc1)c1ncsc1S(=O)(=O)c1ccc(Cl)cc1 [JMX0521, 5-((4-Chlorophenyl)sulfonyl)-N-(4-(trifluoromethyl)phenyl)thiazole-4-carboxamide] | <0.5
11 | O=C(Nc1cc(F)cc(C(F)(F)F)c1)c1ncsc1S(=O)(=O)c1ccc(Cl)cc1 [JMX0522, 5-((4-Chlorophenyl)sulfonyl)-N-(3-fluoro-5-(trifluoromethyl)phenyl) thiazole-4-carboxamide] | 1.0
12 | O=C(Nc1ccc(C(F)(F)F)nc1)c1ncsc1S(=O)(=O)c1ccc(Cl)cc1 [JMX0523, 5-((4-Chlorophenyl)sulfonyl)-N-(6-(trifluoromethyl)pyridin-3-yl) thiazole-4-carboxamide] | <1.1
13 | O=C(Nc1ccc(F)nc1)c1ncsc1S(=O)(=O)c1ccc(Cl)cc1 [JMX0524, 5-((4-Chlorophenyl)sulfonyl)-N-(6-fluoropyridin-3-yl)thiazole-4-carboxamide] | <1.7
14 | O=C(Nc1ccc(F)cc1)c1ncsc1S(=O)(=O)c1ccc(Cl)cc1 [JMX0525, 5-((4-Chlorophenyl)sulfonyl)-N-(4-fluorophenyl)thiazole-4-carboxamide] | <3.1
15 | O=C(NCc1ccc(F)cc1)c1ncsc1S(=O)(=O)c1ccc(Cl)cc1 [JMX0541, 5-((4-Chlorophenyl)sulfonyl)-N-(4-fluorobenzyl)thiazole-4-carboxamide] | 1.1
16 | O=C(Nc1ccc(F)cc1)c1nnsc1Sc1ccc(Cl)cc1 [JMX0564, 5-((4-Chlorophenyl)thio)-N-(4-fluorophenyl)-1,2,3-thiadiazole-4-carboxamide] | <4.2
17 | O=C(Nc1ccc(F)cc1)c1nnsc1[S+]([O-])c1ccc(Cl)cc1 (centres unmarked) [JMX0565-1, 5-((4-Chlorophenyl)sulfinyl)-N-(4-fluorophenyl)-1,2,3-thiadiazole-4-carboxamide] | 335
18 | O=C(Nc1ccc(F)cc1F)c1nnsc1Sc1ccc(Cl)cc1 [JMX0569, 5-((4-Chlorophenyl)thio)-N-(2,4-difluorophenyl)-1,2,3-thiadiazole-4-carboxamide] | <1.9
19 | O=C(Nc1ccc(Cl)cc1)c1nnsc1Sc1ccc(Cl)cc1 [JMX0570, N-(4-Chlorophenyl)-5-((4-chlorophenyl)thio)-1,2,3-thiadiazole-4-carboxamide] | <0.8
20 | O=C(Nc1ccc(Cl)cc1)c1nnsc1S(=O)(=O)c1ccc(Cl)cc1 [JMX0571, N-(4-Chlorophenyl)-5-((4-chlorophenyl)sulfonyl)-1,2,3-thiadiazole-4-carboxamide] | 86.5
21 | O=C(NCc1ccc(F)cc1)c1nnsc1Sc1ccc(Cl)cc1 [JMX0573, 5-((4-Chlorophenyl)thio)-N-(4-fluorobenzyl)-1,2,3-thiadiazole-4-carboxamide] | <2.8

Row | Compound | TI, therapeutic index (CC50/MIC)
22 | O=C(NCc1ccc(F)cc1)c1nnsc1S(=O)(=O)c1ccc(Cl)cc1 [JMX0574, 5-((4-Chlorophenyl)sulfonyl)-N-(4-fluorobenzyl)-1,2,3-thiadiazole-4-carboxamide] | 27.5
23 | O=C(Nc1ccc(C(F)(F)F)cc1)c1nnsc1Sc1ccc(Cl)cc1 [JMX0575, 5-((4-Chlorophenyl)thio)-N-(4-(trifluoromethyl)phenyl)-1,2,3-thiadiazole-4-carboxamide] | <2.7
24 | O=C(Nc1ccc(C(F)(F)F)cc1)c1nnsc1S(=O)(=O)c1ccc(Cl)cc1 [JMX0576, 5-((4-Chlorophenyl)sulfonyl)-N-(4-(trifluoromethyl)phenyl)-1,2,3-thiadiazole-4-carboxamide] | 51.7
25 | O=C(Nc1ccc(F)cc1)c1nnc(Sc2ccc(Cl)cc2)s1 [JMX0584, 5-((4-chlorophenyl)thio)-N-(4-fluorophenyl)-1,3,4-thiadiazole-2-carboxamide] | <1.5
26 | O=C(Nc1ccc(F)cc1)c1nnc(S(=O)(=O)c2ccc(Cl)cc2)s1 [JMX0585-1, 5-((4-chlorophenyl)sulfonyl)-N-(4-fluorophenyl)-1,3,4-thiadiazole-2-carboxamide] | 8.3
27 | O=C(Nc1ccc(F)cc1)c1nnc([S+]([O-])c2ccc(Cl)cc2)s1 (centres unmarked) [JMX0585-2, 5-((4-chlorophenyl)sulfinyl)-N-(4-fluorophenyl)-1,3,4-thiadiazole-2-carboxamide] | 294 and 293.7
28 | O=C(Nc1ccccc1F)c1nnsc1S(=O)(=O)c1ccc(Cl)cc1 [JMX872, 5-((4-Chlorophenyl)sulfonyl)-N-(2-fluorophenyl)-1,2,3-thiadiazole-4-carboxamide] | <3.2
29 | O=C(Nc1ccc(F)c(F)c1)c1nnsc1S(=O)(=O)c1ccc(Cl)cc1 [JMX876, 5-((4-Chlorophenyl)sulfonyl)-N-(3,4-difluorophenyl)-1,2,3-thiadiazole-4-carboxamide] | 52.1
30 | Cc1ccc(NC(=O)c2nnsc2S(=O)(=O)c2ccc(Cl)cc2)cc1 [JMX1033, 5-((4-chlorophenyl)sulfonyl)-N-(p-tolyl)-1,2,3-thiadiazole-4-carboxamide] | <3.1
31 | Cc1ccc(NC(=O)c2nnsc2[S+]([O-])c2ccc(Cl)cc2)cc1 (centres unmarked) [JMX1033-2] | <1.5
32 | O=C(Nc1ccc(Br)cc1)c1nnsc1S(=O)(=O)c1ccc(Cl)cc1 [JMX1034, N-(4-Bromophenyl)-5-((4-chlorophenyl)sulfonyl)-1,2,3-thiadiazole-4-carboxamide] | <1.7
33 | O=C(Nc1ccccc1)c1nnsc1S(=O)(=O)c1ccc(Cl)cc1 [JMX1035, 5-((4-Chlorophenyl)sulfonyl)-N-phenyl-1,2,3-thiadiazole-4-carboxamide] | 13.5
34 | O=C(Nc1cc(F)cc(Cl)c1)c1nnsc1S(=O)(=O)c1ccc(Cl)cc1 [JMX1036, N-(3-Chloro-5-fluorophenyl)-5-((4-chlorophenyl)sulfonyl)-1,2,3-thiadiazole-4-carboxamide] | 45.4
35 | O=C(Nc1ccc(F)c(Cl)c1)c1nnsc1S(=O)(=O)c1ccc(Cl)cc1 [JMX1037, N-(3-Chloro-4-fluorophenyl)-5-((4-chlorophenyl)sulfonyl)-1,2,3-thiadiazole-4-carboxamide] | 2.5
36 | O=C(Nc1cc(F)cc(F)c1)c1nnsc1S(=O)(=O)c1ccc(Cl)cc1 [JMX1038, 5-((4-Chlorophenyl)sulfonyl)-N-(3,5-difluorophenyl)-1,2,3-thiadiazole-4-carboxamide] | <1.1
37 | O=C(Nc1cc(F)cc(C(F)(F)F)c1)c1nnsc1S(=O)(=O)c1ccc(Cl)cc1 [JMX1040, 5-((4-chlorophenyl)sulfonyl)-N-(3-fluoro-5-(trifluoromethyl)phenyl)-1,2,3-thiadiazole-4-carboxamide] | 18.1
38 | O=C(Nc1cc(C(F)(F)F)cc(C(F)(F)F)c1)c1nnsc1S(=O)(=O)c1ccc(Cl)cc1 [JMX1041, N-(3,5-Bis(trifluoromethyl)phenyl)-5-((4-chlorophenyl)sulfonyl)-1,2,3-thiadiazole-4-carboxamide] | <1.3
39 | O=C(Nc1ccc(C(F)(F)F)cc1Cl)c1nnsc1S(=O)(=O)c1ccc(Cl)cc1 [JMX1042, N-(2-Chloro-4-(trifluoromethyl)phenyl)-5-((4-chlorophenyl)sulfonyl)-1,2,3-thiadiazole-4-carboxamide] | <2.0
40 | O=C(Nc1ccc([N+](=O)[O-])cc1F)c1nnsc1S(=O)(=O)c1ccc(Cl)cc1 [JMX1043, 5-((4-Chlorophenyl)sulfonyl)-N-(2-fluoro-4-nitrophenyl)-1,2,3-thiadiazole-4-carboxamide] | <1.3
41 | O=C(Nc1cc(F)c(F)c(F)c1)c1nnsc1S(=O)(=O)c1ccc(Cl)cc1 [JMX1044, 5-((4-Chlorophenyl)sulfonyl)-N-(3,4,5-trifluorophenyl)-1,2,3-thiadiazole-4-carboxamide] | 1.0
